# Deep mutational scan of the Zika virus protease

Reference: Ni et al. 2025, doi:10.1038/s41467-025-63602-z.

The scanned region of Zika virus MR766 is shown below (positions 1-308): NS2B is 2-131, NS3 begins at position 132.
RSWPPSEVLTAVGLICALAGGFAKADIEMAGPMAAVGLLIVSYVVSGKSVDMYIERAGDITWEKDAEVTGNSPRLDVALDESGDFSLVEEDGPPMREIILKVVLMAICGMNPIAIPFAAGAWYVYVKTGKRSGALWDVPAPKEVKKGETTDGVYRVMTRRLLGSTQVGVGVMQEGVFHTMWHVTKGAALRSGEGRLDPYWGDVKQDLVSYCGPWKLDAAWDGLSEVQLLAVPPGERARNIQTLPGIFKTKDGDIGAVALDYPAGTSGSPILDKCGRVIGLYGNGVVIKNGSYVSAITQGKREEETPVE

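Mutant virus pools were grown in human Huh-7.5 cells. Sequencing of three replicate libraries (two for positions 207-308) was averaged into one effect per change. The study looked for pockets that tolerate few changes, as a guide for inhibitor design.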

Scale: log2 effect, wild type = 0; the lower, the more harmful to the virus.
Each entry names the wild-type residue, its position and the residue put in its place.

substitution	log2 effect
V88C	-3.87
L207H	-6.97
G245P	-5.95
A23W	-5.87
P139S	-6.46
P244T	-6.16
R131Y	-5.74
D251V	-6.25
V203I	-1.55
T165Q	-0.67
G20*	-4.60
I15F	-5.64
R159S	-4.48
P244R	-6.15
G252E	-3.80
G83M	-6.13
L39Q	-5.18
L100G	-2.09
V286K	-5.31
A119I	-2.44
V286I	-1.52
M110Y	0.33
L207A	-7.63
P4H	-2.65
S42H	-5.29
P232Q	0.18
A219Y	-0.71
G282Q	-3.39
K48F	-5.64
V231N	-3.88
Y261K	-4.27
M110V	-0.38
F177P	-5.82
G47F	-4.99
C211G	0.08
L100V	-0.76
M110N	-2.18
G284V	-6.62
M172Y	-5.46
S42L	-7.64
L162S	-6.84
A188I	-4.55
W122*	-7.70
K146A	-2.40
I27M	-1.15
G170E	-4.94
A218H	-3.58
Y292H	-3.96
I296A	-5.35
A30E	-4.38
I99P	-6.55
D84A	-7.17
A17Y	-5.22
A25T	-1.48
T297S	-0.04
M95Q	-5.96
V226F	-5.70
P73D	-5.99
E174Y	-3.78
A263E	-5.37
P32D	-5.00
D76R	-0.87
A19T	-4.44
G21K	-6.62
G37T	-2.69
K127T	-5.96
C274K	-3.16
Q227A	-6.52
G92I	-3.75
V156R	-7.23
T149F	-5.15
C16M	-5.41
M180T	-5.62
A11E	-6.01

Extract of 4 entries:

substitution,log2 effect
F177P,-5.82
P244R,-6.15
L39Q,-5.18
V286K,-5.31

The authors count -1 or higher as tolerated. Position 1 is the last residue of NS2A.
An asterisk is a stop codon; stop codons read about -7, near the floor of the assay.
Six mutants with high scores were retested singly and none clearly outgrew wild type, so positive values are not proof of better growth.
Positions 1-103, 104-206 and 207-308 were made and measured as separate libraries.